Reference: patent US20150044169
For at least one entry, the source does not settle the construct or the ends of the probe.

Tests used:
[1] = system: mistic-NS4B (Hepatitis C virus); test: filter binding; settings: 50 mM HEPES pH 7.0, 50 mM NaCl, 1 mM MgCl2, tRNA, 3.3 nM RNA, 30 C; purified recombinant protein; protein details: N-terminal 6xHis-MISTIC fusion, E. coli; label: Cy5 (32P in pull-down and filter assays)
[2] = system: GST-NS4B (Hepatitis C virus); test: pull-down; settings: 10 mM Na HEPES pH 7.4, 33 mM NaCl, 10 mM MgCl2, 37 C; purified recombinant protein; protein details: GST fusion, E. coli BL21; label: Cy5 (32P in pull-down and filter assays)

ACUCGAGCGGCCGCCACUGUGCUGGAUAUCGAUCCAUGGCGCGCCCUUUGGUUUUUCUUUGAGGUUUAGGAUUCGUGCUCAUGGUGCACGGUCUACGAGACCUCCCGGGGCACUCGCAAGCACCCUAUCAGGCAGUACCACAAGGCCUUUCGCGACCCAACACUACUCGGCUAGCAGUCUCGCGGGGGCACGCCCAAAUCUCCAGGCAUUGAGCGGGUUGAUCCAAGAAAGGACCCGGUCGUCCUGGCAAUUCCGGUGUACUCACCGGUUCCGCAGACCACUAUGGCUCUCCCGGGAGGGGGGGUCCUGGAGGCUGCACGACACUCAUACUAACGCCAUGGCUAGACGCUUUCUGCGUGAAGACAGUAGUUCCUCACAGGGGAGUGAUCUAUGGUGGAGUGUCGCCCCCAAUCGGGGGCUGGCUAUAGUGAGUCGUAUUAUGAUAUCUGCAGAAUUCCACCACACUGGACUAGUGGAUCCGAGCUCGGUACCAAGCUUAAGUUUAAACGCUAGCCAGCUUGGGUCU [3' negative terminus (HCV negative strand)]
binding result [1]: binds
binding result [2]: binds
